Compound potency records, mixed from different reports. Data source: NIAID ChemDB in PubChem.

All rows: growth or infection tests; agent: HIV-1; method: syncytia / visual reading; read-out: EC50

Rows are shuffled and stem from different studies. An empty or dashed field is not shown. ECn is the concentration giving n% inhibition of infection, replication or growth.

compound	strain	cells	value
Cc1ccc(S(=O)(=O)n2cc(/C=N/NC(=O)c3ccccc3)c3cc(C#N)ccc32)cc1	IIIB	C8166	3.13 µg/mL
O=c1[nH]c(=S)ccn1[C@@H]1O[C@H](COP(=O)(O)O)[C@@H](O)[C@H]1O	IIIB	MT-2	11.7 µM
COc1ccc(S(=O)(=O)n2cc(/C(C)=N/NC(=O)c3ccccc3)c3ccccc32)cc1	IIIB	C8166	0.16 µg/mL
Nc1c(B(O)O)c2c3c4c1CC(O)c1c(N)c(B(O)O)c5c(c14)c1c4c(c6c7c(cc(B(O)O)c8c7c4c4c(c31)C(C2C(=O)O)C(C(=O)O)C(C(=O)O)C4N8)-c1cccc(B(O)O)c1N6)C5C(=O)O	-	MT-4 + MOLT-4	480 µg/mL
CC/C=C\C/C=C\C/C=C\C/C=C\C/C=C\CCCC(=O)O[C@@H]1[C@@H](C)[C@@]2(O)[C@@H](C=C(CO)C[C@]3(O)C(=O)C(C)=C[C@@H]23)[C@@H]2C(C)(C)[C@]12OC(=O)CCC	IIIB	C8166	1.17 µM
C/C(=N\NC(=O)c1ccccc1)c1cn(S(=O)(=O)c2cccc([N+](=O)[O-])c2)c2ccccc12	IIIB	C8166	0.26 µg/mL
CCC(=O)c1cn(S(=O)(=O)c2ccc(OC)cc2)c2cc(C)ccc12	IIIB	C8166	65 µg/mL
Cc1ccc(S(=O)(=O)n2cc(/C=N/NC(=O)c3ccccc3)c3ccc(C)cc32)cc1	IIIB	C8166	8.25 µg/mL
CCCCCCCCC(=O)O[C@@]12[C@H](OC(=O)/C=C/c3ccc(F)cc3)[C@@H](C)[C@@]3(O)[C@@H](C=C(CO)C[C@]4(O)C(=O)C(C)=C[C@@H]34)[C@@H]1C2(C)C	IIIB	C8166	0.007 µM
CCCCC/C(=N\NC(=O)c1ccccc1)c1cn(S(=O)(=O)c2ccccc2)c2ccccc12	IIIB	C8166	38.23 µg/mL
CCCCCCCCCCCCCCC(=O)Oc1ccc(OP(=O)(OCc2ccc(OC(=O)CC(C)C)cc2)OP(=O)(O)OP(=O)(O)OC[C@@H]2C=C[C@H](n3cc(C)c(=O)[nH]c3=O)O2)cc1	IIIB	CEM	0.17 µM
CCCCCCCCC(=O)O[C@@H]1[C@@H](C)[C@@]2(O)[C@@H](C=C(CO)C[C@]3(O)C(=O)C(C)=C[C@@H]23)[C@@H]2C(C)(C)[C@]12OC(=O)CCCCCCCC	IIIB	C8166	0.0052 µM
CCCCCCCCCCCCCCC(=O)Oc1ccc(COP(=O)(Oc2ccc(OC(=O)CCCC(=O)OCCOCCOCCOC)cc2)OP(=O)(O)OP(=O)(O)OC[C@@H]2C=C[C@H](n3cc(C)c(=O)[nH]c3=O)O2)cc1	IIIB	CEM	0.31 µM
CCCCCCCCCCCCCCCCCCOP(=O)(OCCCC)OP(=O)(O)OP(=O)(O)OP(=O)(O)OC[C@@H]1C=C[C@H](n2cc(C)c(=O)[nH]c2=O)O1	HE	CD4+ T-cell	0.07 µM
Cc1ccc2c(/C=N/NC(=O)c3ccccc3)cn(S(=O)(=O)c3cccc([N+](=O)[O-])c3)c2c1	IIIB	C8166	1.02 µg/mL
CCC(=O)c1cn(S(=O)(=O)c2ccc(Cl)cc2)c2ccc(C#N)cc12	IIIB	C8166	>200 µg/mL
CCCCCCCCC(=O)O[C@@]12[C@H](OC(=O)/C=C/c3ccc(OC)cc3)[C@@H](C)[C@@]3(O)[C@@H](C=C(CO)C[C@]4(O)C(=O)C(C)=C[C@@H]34)[C@@H]1C2(C)C	IIIB	C8166	0.0337 µM
CCCCCCCCCCCCCCC(=O)Oc1ccc(OP(=O)(OCc2ccc(OC(=O)CCCCCC)cc2)OP(=O)(O)OP(=O)(O)OC[C@@H]2C=C[C@H](n3cc(C)c(=O)[nH]c3=O)O2)cc1	IIIB	CEM	0.15 µM
CCC(=O)c1cn(S(=O)(=O)c2cccc([N+](=O)[O-])c2)c2cc(C)ccc12	IIIB	C8166	1.2 µg/mL

A second listing of 3 rows from above:

{"compound": "CCC(=O)c1cn(S(=O)(=O)c2cccc([N+](=O)[O-])c2)c2cc(C)ccc12", "strain": "IIIB", "cells": "C8166", "value": "1.2 µg/mL"}
{"compound": "CCCCCCCCCCCCCCC(=O)Oc1ccc(COP(=O)(Oc2ccc(OC(=O)CCCC(=O)OCCOCCOCCOC)cc2)OP(=O)(O)OP(=O)(O)OC[C@@H]2C=C[C@H](n3cc(C)c(=O)[nH]c3=O)O2)cc1", "strain": "IIIB", "cells": "CEM", "value": "0.31 µM"}
{"compound": "CCCCC/C(=N\\NC(=O)c1ccccc1)c1cn(S(=O)(=O)c2ccccc2)c2ccccc12", "strain": "IIIB", "cells": "C8166", "value": "38.23 µg/mL"}